Results of unrelated studies side by side (data: NIAID ChemDB).

Common to all: growth or infection tests; organism: Rhinovirus

MIC50, MIC90 and the like: level of inhibition, or share of isolates inhibited. ECn: concentration that inhibits the pathogen or its effect by n%. Percent inhibition refers to the dose given; in toxicity tests it is the harm to the cells. Rows are shuffled and stem from different studies.

CCOC(=O)c1ccc(OCCC2CCN(c3ccc(C)nn3)CC2)cc1 ; strain or isolate: 5146 (ICAM-1 receptor group 24) ; cell line: KB ; read by: neutral red ; endpoint: EC50 ; value: 0.006 µM
Cc1ccc(C(=O)CCCCOc2ccc(C3=NCCO3)cc2)cc1 ; strain or isolate: serotype 1A 1B 2 6 14 15 21 22 25 29 30 41 42 45 59 63 67 70 72 86 89 ; endpoint: MIC80 ; value: >296 µM
Cc1cc(CCCCCOc2cc(Cl)c(-c3nnc(C)o3)c(Cl)c2)on1 ; strain or isolate: Serotype 1B ; endpoint: MIC80 ; value: 0.14 µg/mL
Cc1cc(OCCCc2ccc(F)nn2)cc(C)c1-c1noc(C(F)(F)F)n1 ; strain or isolate: serotypes 3 4 5 9 16 18 38 66 75 67 ; cell line: HeLa ; read by: cytopathic effect ; endpoint: EC80 ; value: 0.44 µg/mL
CCOC(=O)c1ccc(OCCC2CCN(c3ccc(C)nn3)CC2)cc1 ; strain or isolate: Serotype 89 (group B) ; cell line: HELA-OHIO ; read by: cytopathic effect ; endpoint: EC50 ; value: 0.005 µM
Cc1cc(OCCCc2ccc(=O)[nH]n2)cc(C)c1-c1noc(C(F)F)n1 ; strain or isolate: serotypes 3 4 5 9 16 18 38 66 75 67 ; cell line: HeLa ; read by: cytopathic effect ; endpoint: EC80 ; value: 2.16 µg/mL
O=S(=O)([O-])c1ccc2c(O)cc(S(=O)(=O)[O-])cc2c1 ; cell line: Human embryonic lung cells ; read by: cytopathic effect ; endpoint: inhibition ; tested at: 5 µg/mL ; value: 10%
Cc1ccccc1Cn1cnc2c(N(C)C)nc(C(F)(F)F)nc21 ; strain or isolate: Serotype 4 ; cell line: M-HELA ; read by: plaque count ; endpoint: inhibition ; tested at: 8 µM ; value: 22%
Cc1cc(CCCCCCCOc2ccc(C3=NCCO3)cc2)on1 ; strain or isolate: TYPE 14 ; endpoint: MIC ; value: 0.4 µM
Cc1cc(CCCOc2c(C)cc(-c3noc(C(F)(F)F)n3)cc2C)on1 ; strain or isolate: Isolate 38 ; cell line: OHIO HELA-I ; read by: cytopathic effect / visual reading ; endpoint: EC50 ; value: 0.05 µg/mL
Cc1cc(CCCCCCCOc2ccc(C3=NCCO3)cc2)on1 ; strain or isolate: 17 serotypes ; endpoint: inhibition ; tested at: 0.658 µg/mL ; value: 18%
CCOC(=O)c1ccc(OCCOc2ccc(-c3snc(SC)c3C#N)cc2)cc1 ; strain or isolate: Serotype 86 (group A) ; cell line: HELA-OHIO ; read by: cytopathic effect ; endpoint: EC50 ; value: >2 µM
Cc1cc(CCCCCOc2cc(Cl)c(-c3nnco3)c(Cl)c2)on1 ; strain or isolate: Serotype 86 ; endpoint: MIC80 ; value: 1.28 µg/mL
CCCN=C1CCC(C(=O)NCCC#N)N1 ; strain or isolate: Serotype 2 ; endpoint: MIC ; value: >100 µg/mL
COc1ccc(C(=O)CCCCOc2ccc(C#N)cc2)cc1 ; strain or isolate: serotype 1A 1B 2 6 14 15 21 22 25 29 30 41 42 45 59 63 67 70 72 86 89 ; endpoint: MIC80 ; value: >194 µM
CSc1nsc(-c2ccc(OCCc3ccccc3)cc2)c1C#N ; strain or isolate: Serotype 14 (group A) ; cell line: HELA-OHIO ; read by: cytopathic effect ; endpoint: EC50 ; value: >20 µM
Fc1cccc(Cn2cnc3c(Nc4cccc(F)c4)nc(C(F)(F)F)nc32)c1 ; strain or isolate: Serotype 22 ; cell line: M-HELA ; read by: plaque count ; endpoint: EC50 ; value: 2.3 µM
CC1(C)COC(c2ccc(OCCN3CCN(c4ccc(Cl)nn4)CC3)cc2)=N1 ; strain or isolate: 100 serotypes ; endpoint: inhibition ; tested at: 20 µg/mL ; value: 53%
O=P1(O)OCC2O[C@@H](n3cnc4c(SCc5ccccc5)ncnc43)[C@H](O)C2O1 ; strain or isolate: TYPE 1A ; endpoint: MIC ; value: 10 µg/mL
CSc1nsc(-c2ccccc2)c1C#N ; strain or isolate: Serotype 41 (group B) ; cell line: HELA-OHIO ; read by: cytopathic effect ; endpoint: EC50 ; value: >80 µM
CC(C)Oc1ccc(Cn2cnc3c(N(C)C)nc(C(F)(F)F)nc32)cc1 ; strain or isolate: Serotype 14 ; cell line: M-HELA ; read by: plaque count ; endpoint: inhibition ; tested at: 8 µM ; value: 22%
Nc1cc(S(=O)(=O)[O-])cc2cc(S(=O)(=O)[O-])ccc12 ; cell line: Human embryonic lung cells ; read by: cytopathic effect ; endpoint: inhibition ; tested at: 50 µg/mL ; value: 55%
Cc1cc(CCCOc2c(C)cc(-c3noc(C(F)(F)F)n3)cc2C)on1 ; strain or isolate: Serotype 14 ; endpoint: EC90 ; value: 0.16 µM
CCOC(=O)c1ccc(OCCCCC(=O)c2ccc(F)cc2)cc1 ; strain or isolate: serotype 1A 1B 2 6 14 15 21 22 25 29 30 41 42 45 59 63 67 70 72 86 89 ; endpoint: MIC80 ; value: >290 µM
Cc1cc(OCCCc2ccc(C(F)(F)F)nn2)cc(C)c1-c1noc(C(F)F)n1 ; strain or isolate: serotypes 3 4 5 9 16 18 38 66 75 67 ; cell line: HeLa ; read by: cytopathic effect ; endpoint: EC80 ; value: 0.1 µg/mL
CSc1nsc(-c2ccc(O)cc2)c1C#N ; strain or isolate: Serotype 89 (group B) ; cell line: HELA-OHIO ; read by: cytopathic effect ; endpoint: EC50 ; value: >10 µM
O=S(=O)(O)c1cccc2c(O)cccc12 ; cell line: Human embryonic lung cells ; read by: cytopathic effect ; endpoint: inhibition ; tested at: 10 µg/mL ; value: 0%
CSc1nsc(-c2ccc(OCCCOc3ccc([N+](=O)[O-])cc3)cc2)c1C#N ; strain or isolate: Serotype 9 (group B) ; cell line: HELA-OHIO ; read by: cytopathic effect ; endpoint: EC50 ; value: >1 µM
COc1ccc(-c2snc(SC)c2C#N)cc1 ; strain or isolate: Serotype 70 (group A) ; cell line: HELA-OHIO ; read by: cytopathic effect ; endpoint: EC50 ; value: >12 µM
N#CCCNC(=O)C1CCCC(=O)N1 ; strain or isolate: Serotype 2 ; endpoint: MIC ; value: >100 µg/mL
O=P1(O)OCC2O[C@@H](n3cnc4c(NO)ncnc43)[C@H](O)C2O1 ; strain or isolate: TYPE 1A ; endpoint: MIC ; value: 100 µg/mL
CC(=O)Nc1ccc(Cn2cnc3c(Nc4cccc(F)c4)nc(C(F)(F)F)nc32)cc1 ; strain or isolate: Serotype 4 ; cell line: M-HELA ; read by: plaque count ; endpoint: EC50 ; value: 45 µM
FC(F)(F)c1cccc(C2CCN(c3ccc(Br)nn3)C2)c1 ; strain or isolate: 100 serotypes ; endpoint: inhibition ; tested at: 5.6 µg/mL ; value: 71%
N#CCCCCNC(=O)C1CCC(=O)N1 ; strain or isolate: Serotype 2 ; endpoint: MIC ; value: >100 µg/mL
O=S(=O)(O)CO ; cell line: Human embryonic lung cells ; read by: cytopathic effect ; endpoint: inhibition ; tested at: 10 µg/mL ; value: 0%
CCOC(=O)c1ccc(OCCC2CCN(c3ccc(C)nn3)CC2)cc1 ; strain or isolate: Serotype 1A ; endpoint: EC90 ; value: 0.95 µM
N=C(N)CCCNC(=O)C1CCC(N)=N1 ; strain or isolate: Serotype 2 ; endpoint: MIC ; value: >100 µg/mL
Cc1cc(CCCCCOc2ccc(C3=NCCO3)c(C)c2)on1 ; strain or isolate: TYPE 2 ; endpoint: MIC ; value: 1.2 µM
CSc1nsc(-c2ccc(OCCCc3ccccc3)cc2)c1C#N ; strain or isolate: Serotype 45 (group A) ; cell line: HELA-OHIO ; read by: cytopathic effect ; endpoint: EC50 ; value: >20 µM
CN(C)c1nc(C(F)(F)F)nc2c1ncn2Cc1ccc([N+](=O)[O-])cc1 ; strain or isolate: Serotype 21 ; cell line: M-HELA ; read by: plaque count ; endpoint: inhibition ; tested at: 8 µM ; value: 28%
CC(=O)c1ccc(CCCOc2cc(C)c(-c3noc(C(F)F)n3)c(C)c2)nn1 ; strain or isolate: serotypes 3 4 5 9 16 18 38 66 75 67 ; cell line: HeLa ; read by: cytopathic effect ; endpoint: EC80 ; value: 0.19 µg/mL
CCOC(=O)c1ccc(OCCCCC(=O)c2ccc(Cl)cc2)cc1 ; strain or isolate: serotype 1A 1B 2 6 14 15 21 22 25 29 30 41 42 45 59 63 67 70 72 86 89 ; endpoint: MIC80 ; value: >277 µM
N#CCCCNC(=O)C1CCC(N)=N1 ; strain or isolate: Serotype 2 ; endpoint: MIC ; value: >100 µg/mL
COc1ccc(N2CCN(c3cccc(C)c3)CC2)nn1 ; strain or isolate: 100 serotypes ; endpoint: inhibition ; tested at: 9.6 µg/mL ; value: 71%
CSc1nsc(-c2ccc(OCCOc3ccc([N+](=O)[O-])cc3)cc2)c1C#N ; strain or isolate: Serotype 89 (group B) ; cell line: HELA-OHIO ; read by: cytopathic effect ; endpoint: EC50 ; value: >2 µM
CS(=O)(=O)c1ccc2c(c1)CCC(c1ccc(Cl)c(Cl)c1)O2 ; strain or isolate: 17 serotypes ; endpoint: inhibition ; tested at: 0.031 µg/mL ; value: 18%
Cc1cc(Cl)ccc1Cn1cnc2c(N(C)C)nc(C(F)(F)F)nc21 ; strain or isolate: Serotype 13 ; cell line: M-HELA ; read by: plaque count ; endpoint: inhibition ; tested at: 8 µM ; value: 23%
Cc1nc(-c2cc(C)c(OCCCc3ccco3)c(C)c2)no1 ; strain or isolate: serotypes 2 14 1A 1B 6 21 22 15 25 30 50 67 89 86 41 ; cell line: HeLa ; read by: cytopathic effect ; endpoint: EC80 ; value: 0.83 µg/mL
CSc1nsc(-c2ccc(OCCCCOc3ccccc3)cc2)c1C#N ; strain or isolate: Serotype 29 (group B) ; cell line: HELA-OHIO ; read by: cytopathic effect ; endpoint: EC50 ; value: >20 µM
Nc1nc2c(ccn2[C@@H]2C[C@H](CO)[C@@H](O)[C@@H]2O)c(=O)[nH]1 ; strain or isolate: TYPE 1B ; endpoint: MIC ; value: >100 µg/mL
CN(C)c1nc(C(F)(F)F)nc2c1ncn2Cc1ccc(F)cc1 ; strain or isolate: Serotype 21 ; cell line: M-HELA ; read by: plaque count ; endpoint: inhibition ; tested at: 8 µM ; value: 34%
O=C(Nc1ccc2c(O)c(N=Nc3ccc(N=Nc4ccc(S(=O)(=O)O)cc4)cc3)c(S(=O)(=O)O)cc2c1)c1ccccc1 ; cell line: Human embryonic lung cells ; read by: cytopathic effect ; endpoint: inhibition ; tested at: 5 µg/mL ; value: 0%
CSc1nsc(-c2ccc(OCCCCOc3ccc([N+](=O)[O-])cc3)cc2)c1C#N ; strain or isolate: Serotype 15 (group B) ; cell line: HELA-OHIO ; read by: cytopathic effect ; endpoint: EC50 ; value: >0.5 µM